Assay results: article PMC6191539, “NadA3 Structures Reveal Undecad Coiled Coils and LOX1 Binding Regions Competed by Meningococcus B Vaccine-Elicited Human Antibodies” (mBio, 2018)

Target: the molecule itself
Test: crystal structure; X-ray, sitting-drop vapor diffusion at 20°C, 0.1 M sodium phosphate citrate pH 3.9, 5% PEG 1K, MPD; one trimer in the asymmetric unit

B1: NadA3 […] A33I I38L double mutant (domain or fragment)
chain: not shown
notes: NadA3, N. meningitidis serogroup B strain 2996, […], […] with A33I and I38L; PDB […] is the wild-type parent of the same limits; also called NadA3 A33I-I38L
B1: binds.
